Assay results from PubChem BioAssay AID624416 (The Scripps Research Institute Molecular Screening Center, 2012).
This is a selection; strong and weak results do not stand in their true shares. Activity calls are given as the source filed them. Rule as the data show it: active = inhibition above about 8.5%; inactive = the rest.

tested on: HIV-1 gp120 / PG9 antibody interaction; assay: small molecules engaging PG9 antibody – biochemical, TR-FRET, primary screen (AID 624416); conditions: TR-FRET gp120-PG9 antibody binding; at 6.7 µM; stronger effect = higher value

Structure (SMILES) | inhibition
C/C(N)=N\P(=O)(OCc1ccccc1)OCc1ccccc1 | inactive: 2.27%
Nc1ccc([As](=O)(O)c2ccc([N+](=O)[O-])cc2)cc1 | inactive: -1.98%
C(Cc1nn[nH]n1)Cc1nn[nH]n1 | inactive: -0.64%
c1ccc(-c2nn[nH]n2)c(-c2nn[nH]n2)c1 | inactive: -0.44%
Cc1ccc(NP(=O)(Oc2cccc(C)c2)Oc2cccc(C)c2)nc1 | inactive: 0.68%
O=C(NC1CCS(=O)(=O)C1)NP(=S)(Oc1ccccc1)Oc1ccccc1 (stereo not drawn) | inactive: 0.28%
CCNC(=S)/N=C(\N)N[N+](=O)[O-] | inactive: 1.4%
O=P1(N(CCCl)CCCl)OCCC2CCCCN21 (stereo not drawn) | inactive: 0.75%
O=C(OC1CN2CCC1CC2)c1ccccc1 (stereo not drawn) | inactive: -1.82%
CCC(=O)N1C2C3N(C(=O)CC)C1C1N(C(=O)CC)C(C(N1C(=O)CC)N3C(=O)CC)N2C(=O)CC | inactive: 0.12%
COC(=O)c1cc2c(s1)N=C(c1ccccc1)N(C)P2(=O)N1CCOCC1 (stereo not drawn) | inactive: 1.03%
CC(=O)NC(SC(=S)N(CC(C)C)CC(C)C)C(Cl)(Cl)Cl (stereo not drawn) | inactive: -0.56%
Cc1ccc(OP(=O)(Nc2ccccn2)Oc2ccc(C)cc2)cc1 | inactive: -1.03%
Cc1ccccc1OP(=O)(Nc1ccccn1)Oc1ccccc1C | inactive: 0.18%
CC(NC(=O)COC(=O)C(O)(c1ccccc1)c1ccccc1)c1ccccc1 (stereo not drawn) | inactive: 0.34%
CN(C)C(=O)Oc1noc2ccccc12 | inactive: -2.46%
O=c1c2cc([N+](=O)[O-])ccc2[nH]c2c([N+](=O)[O-])cc([N+](=O)[O-])cc12 | inactive: -1.35%
O=P1(Nc2nc3ccc(Cl)cc3s2)COc2ccccc2O1 (stereo not drawn) | inactive: 2.5%
CCOc1ccc(C2=NCC(CBr)S2)cc1 (stereo not drawn) | inactive: -3.5%
CC(C)(C)C(=O)NC(Sc1ccccc1)C(Cl)(Cl)Cl (stereo not drawn) | inactive: -2.17%
CCc1cc(O)c([N+](=O)[O-])c(C)c1[N+](=O)[O-] | inactive: -0.9%
Cc1ccccc1CN(C)C(=O)COC(=O)C(O)(c1ccccc1)c1ccccc1 | inactive: 0.52%
C[C@@H]1C=CCP(=O)(Oc2ccccc2)O1 (stereo partly drawn) | inactive: 0.34%
C[C@H]1OP(=O)(Oc2ccccc2)C[C@@H]2O[C@@H]21 (stereo partly drawn) | inactive: 1.83%
N#C/C(=C\c1ccc(N(CCBr)CCBr)cc1)C(N)=O | inactive: -3.09%

Structure (SMILES) | inhibition
CC(=O)c1ccc(N2CC2c2ccncc2)cc1 (stereo not drawn) | inactive: -1.11%
COC(=O)C1(C)COP(=O)(NCc2ccccc2)OC1 (stereo not drawn) | inactive: 0.31%
CC(=O)Nc1ccc([As](=O)(O)O)c(O)c1 | inactive: 0.65%
CC(=O)Nc1ccc(Oc2c([N+](=O)[O-])cc([N+](=O)[O-])cc2[N+](=O)[O-])cc1 | inactive: 0.59%
CN(C(=O)Cc1ccc(Cl)c(Cl)c1)[C@H]1CCCC[C@H]1N1CCCC1 | inactive: -0.09%
Cc1ccc(N/C(=N/P(=O)(N2CCOCC2)N2CCOCC2)N2CCOCC2)cc1 | inactive: 0.82%
NC(=O)c1cc([N+](=O)[O-])cc([N+](=O)[O-])c1N | inactive: 0.25%
Clc1ccc(Cl)c(NC2=NCC(CBr)S2)c1 (stereo not drawn) | inactive: -1.87%
CN1CCCC(OC(=O)C(c2ccccc2)c2ccccc2)C1 (stereo not drawn) | inactive: 1.68%
COc1ccccc1OP(=O)(Nc1ccc(C)cn1)Oc1ccccc1OC | inactive: -0.86%
Cc1ccc(OP(=O)(Nc2nccs2)Oc2ccc(C)cc2)cc1 | inactive: 0.53%
Oc1ccccc1CNc1ccccn1 | inactive: 1.9%
O=C(NC(Sc1ccncn1)C(Cl)(Cl)Cl)c1ccccc1 (stereo not drawn) | inactive: -0.09%
CC(C)CC(=O)NC(Sc1ccc(Cl)cc1)C(Cl)(Cl)Cl (stereo not drawn) | inactive: -0.42%
Nc1cc(N)c2nonc2c1[N+](=O)[O-] | inactive: -5.69%
CN(C)P(=O)(N(C)C)n1c(Nc2ccccc2)nnc1-c1ccccc1 | inactive: -1.3%
O=P(Nc1nc2ccc(Cl)cc2s1)(c1ccccc1)c1ccccc1 | inactive: -0.98%
O=C(O)c1ccccc1[As](=O)(O)O | inactive: -0.78%
CCCC1OP(N)(=O)OCC1CC (stereo not drawn) | inactive: -0.72%
CCn1c(=O)n(C2CCN(CC3CCCCCCC3)C[C@H]2CO)c2ccccc21 (stereo partly drawn) | inactive: 1.13%
CCOP(=O)(Nc1ccccc1)OCC | inactive: 0.59%
Cc1cc(SC(NC(=O)c2ccc(F)cc2)C(Cl)(Cl)Cl)ncn1 (stereo not drawn) | inactive: -1.96%
CN(C(=O)Cc1ccc(Cl)c(Cl)c1)[C@H]1CCCC[C@@H]1N1CCCC1 | inactive: -1.87%
Cc1ccc(NP(=O)(Oc2ccccc2F)Oc2ccccc2F)nc1 | inactive: -3.2%
Nc1cccc2ccc([As](=O)(O)O)cc12 | inactive: -4.19%

Structure (SMILES) | inhibition
CN(C(=O)Cc1ccccc1)C1CC[C@@]2(CCCO2)C[C@@H]1N1CCCC1 (stereo partly drawn) | inactive: 0.78%
CCN(N=Nc1nonc1N)c1nonc1N | inactive: -0.08%
O=P1(N(CCCl)CCCl)OCCCS1 (stereo not drawn) | inactive: 0.93%
O=C(Nc1cc([As](=O)(O)O)ccc1O)c1ccccc1 | inactive: -1.96%
O=[N+]([O-])c1ncn(CCn2ncnc2[N+](=O)[O-])n1 | inactive: 1.59%
CC(C)(C)C(=O)NC(Sc1ccncn1)C(Cl)(Cl)Cl (stereo not drawn) | inactive: -2.38%
O=C(O)CNc1ccc([As](=O)(O)O)cc1 | inactive: 0.28%
O=[N+]([O-])c1cccc(NC2=NCC(CBr)S2)c1 (stereo not drawn) | inactive: 0.16%
COC(=O)C1(C)COP(=O)(Nc2ccccc2)OC1 (stereo not drawn) | inactive: 0.8%
COc1ccc(C2=NCC(CBr)S2)cc1 (stereo not drawn) | inactive: 0.29%
Cc1ccc(NP(=O)(Oc2ccccc2)Oc2ccccc2)nc1 | inactive: -0.51%
O=[N+]([O-])c1cc([N+](=O)[O-])c(CCNc2ccccc2)c([N+](=O)[O-])c1 | inactive: 0.06%
CCc1nc2c(n1)c1c(non1O)c1c2no[n+]1[O-] | inactive: -2.26%
CC(=O)N1C2C3N(C(C)=O)C1C1N(C(C)=O)C(C(N1C(C)=O)N3C(C)=O)N2C(C)=O | inactive: 0.57%
O=[N+]([O-])c1cccc2n[nH]nc12 | inactive: 3.33%
CCN(/C(=N/P(=O)(N1CCOCC1)N1CCOCC1)N1CCOCC1)c1ccc(OC)cc1 | inactive: -3.63%
Nc1ccc([As](=O)(O)c2ccc(N)cc2)cc1 | inactive: 0.9%
C[N+]1=C2C=CC=CC=C2SC12C([N+](=O)[O-])=CC([N+](=O)[O-])=C[C-]2[N+](=O)[O-] (stereo not drawn) | inactive: -7.2%
c1cc(-c2nn[nH]n2)ccc1-c1nn[nH]n1 | inactive: -1.44%
CC1CCN(C(=O)Oc2c(Cl)cc(Cl)c3cccnc23)CC1 | inactive: 0.93%
CC(C)=N/N=C(\N)N[N+](=O)[O-] | inactive: 1.52%
CC(C)c1nc(Nc2ccccc2)n(P(=O)(N(C)C)N(C)C)n1 | inactive: -1.82%
CN(C)C(=O)OCCc1n(C)cc[n+]1C | inactive: -0.22%
